# Only a part is listed here, and it is no random draw. Some salts or complexes appear as unconnected parts, following the source record. Activity calls are given as the source filed them.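 The calls were made as follows: active = inhibition above the campaign's mean inhibition across all tested compounds plus 3 SD (cut at about 9.9% in these data); inactive = the rest.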
# Assay: E. coli V3065 growth inhibition, primary screen, counter-screen for AddAB inhibitor project, absorbance, OD600 (AID 449728);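 also: uninfected addAB+ strain grown without phage in ampicillin broth; 0% = DMSO wells and 100% = ciprofloxacin 0.95 µg/ml wells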
# Conditions: 18 h, at 11.9 µM, stronger effect = higher value
row,Structure (SMILES),inhibition
1,CC1=C2N=C(C=C3N=C(C(C)=C4[N-][C@@](C)([C@@H]5N=C1[C@](C)(CCC(=O)NC[C@@H](C)OP(=O)([O-])O[C@H]1[C@@H](O)[C@@H](n6cnc7cc(C)c(C)cc76)O[C@@H]1CO)[C@H]5CC(N)=O)[C@@](C)(CC(N)=O)[C@@H]4CCC(N)=O)[C@@](C)(CC(N)=O)[C@@H]3CCC(N)=O)C(C)(C)[C@@H]2CCC(N)=O.[C-]#N.[Co+3],inactive: 1.13%
2,O=[N+]([O-])c1cc([N+](=O)[O-])c(Nc2nnnn2CCO)c([N+](=O)[O-])c1,inactive: 0.9%
3,CCOC(=O)C(CC)C1=NC(C)(C)Cc2ccccc21.O=[N+]([O-])c1cc([N+](=O)[O-])c(O)c([N+](=O)[O-])c1 (stereo not drawn),inactive: -2.55%
4,COc1ccccc1OP(C)(=O)Nc1c(C)cccc1C (stereo not drawn),inactive: 0.64%
5,CN1CCCCC1COC(=O)C1(O)c2ccccc2CCc2ccccc21 (stereo not drawn),inactive: 2.5%
6,CCCOc1ccc(NP(C)(=O)Oc2ccc(Cl)cc2)cc1 (stereo not drawn),inactive: 1.74%
7,CP(=O)(Nc1ccc(SC(F)(F)F)cc1)Oc1ccccc1 (stereo not drawn),inactive: -0.09%
8,O=[N+]([O-])c1cc([N+](=O)[O-])c(-n2nnc3ccccc32)c([N+](=O)[O-])c1,inactive: -1.37%
9,O=[N+]([O-])c1cc([N+](=O)[O-])c(-c2cnn(-c3ccccc3)c2)c([N+](=O)[O-])c1,inactive: -1.66%
10,Cc1nc2ccc3ccccc3c2s1.O=[N+]([O-])c1cc([N+](=O)[O-])c(O)c([N+](=O)[O-])c1,inactive: 2.8%
11,COc1ccccc1OP(C)(=O)Nc1cccc(Br)c1 (stereo not drawn),inactive: 0.93%
12,CCOC(=O)c1ccc(NP(C)(=O)Oc2cc(C)cc(C)c2)cc1 (stereo not drawn),inactive: -3.7%
13,Cc1cc(C)cc(OP(C)(=O)Nc2ccc(C)cc2C)c1 (stereo not drawn),inactive: -4.62%
14,Cc1ccc(C)c(NP(C)(=O)Oc2ccccc2)c1 (stereo not drawn),inactive: -1.95%
15,Cc1cc(C)cc(OP(C)(=O)Nc2ccccn2)c1 (stereo not drawn),inactive: -2.68%
16,CP(=O)(Nc1cccc(Br)c1)Oc1ccccc1 (stereo not drawn),inactive: 2.21%
17,O=C(O)c1cccc(Nc2c([N+](=O)[O-])cc([N+](=O)[O-])cc2[N+](=O)[O-])c1,inactive: 1.1%
18,CC1=NCCc2c1[nH]c1ccccc21.O=[N+]([O-])c1cc([N+](=O)[O-])c(O)c([N+](=O)[O-])c1,inactive: 3.24%
19,O=[N+]([O-])c1cc([N+](=O)[O-])c(Nc2cccnc2)c([N+](=O)[O-])c1,inactive: -2.15%
20,O=[N+]([O-])c1ccc2c(c1)C=Nc1ccccc1O2,inactive: 1.4%
21,CC(C)(C)c1ccc(OP(C)(=O)Nc2ccc(SC(F)(F)F)cc2)cc1 (stereo not drawn),inactive: 1.38%
22,Cc1cccc(C)c1OP(C)(N)=O (stereo not drawn),inactive: -2.2%

row,Structure (SMILES),inhibition
1,COc1ccccc1OP(C)(=O)Nc1ccc(C)cc1 (stereo not drawn),inactive: 0.92%
2,Cc1ccc(NP(C)(=O)Oc2ccccc2)c(C)c1 (stereo not drawn),inactive: -1.21%
3,CCOC(=O)c1ccc(NP(C)(=O)Oc2ccccc2)cc1 (stereo not drawn),inactive: 1.65%
4,Cc1cc(C)cc(OP(C)(N)=O)c1 (stereo not drawn),inactive: -0.5%
5,COc1ccccc1OP(C)(=O)Nc1cc(Cl)ccc1C (stereo not drawn),inactive: -1.1%
6,COc1ccc(OP(C)(=O)Nc2cccc(F)c2)cc1 (stereo not drawn),inactive: -1.26%
7,CCN(CC)CCCOC(=O)C(O)(c1ccccc1)c1ccccc1,inactive: 1.61%
8,Cc1cccc(C)c1OP(C)(=O)Nc1ccc(SC(F)(F)F)cc1 (stereo not drawn),inactive: 1.04%
9,CP(=O)(Nc1ccc(SC(F)(F)F)cc1)Oc1ccc(Cl)cc1 (stereo not drawn),inactive: 1.07%
10,CP(=O)(Oc1ccccc1)OC(c1ccccc1)C(F)(F)F (stereo not drawn),inactive: -0.17%
11,CP(=O)(NC(=O)Nc1ccccc1)Oc1ccccc1 (stereo not drawn),inactive: 2.54%
12,CCc1ccc(OP(C)(=O)N2CCN(c3ccc([N+](=O)[O-])cc3)CC2)cc1 (stereo not drawn),inactive: 1.62%
13,Cc1cc(C)cc(OP(C)(=O)Nc2ccc(SC(F)(F)F)cc2)c1 (stereo not drawn),inactive: -0.26%
14,CCOC(=O)c1ccc(NP(C)(=O)Oc2ccc(OC)cc2)cc1 (stereo not drawn),inactive: 1.65%
15,O=[N+]([O-])c1cc([N+](=O)[O-])c(O)c([N+](=O)[O-])c1.c1ccc(Oc2ccncc2)cc1,inactive: -0.58%
16,CCOP(C)(=S)SCC(=O)NC(C)C(=O)O (stereo not drawn),inactive: -2.38%
17,CP(=O)(Nc1ccccn1)Oc1ccc(Cl)cc1 (stereo not drawn),inactive: 2.04%
18,CP(=S)(Nn1cnnc1)Oc1ccccc1 (stereo not drawn),inactive: 0.36%
19,CP(=O)(Nc1ccccc1Br)Oc1ccccc1 (stereo not drawn),inactive: -1.38%
20,COc1ccccc1OP(C)(=O)Nc1ccccc1 (stereo not drawn),inactive: 1.87%
21,Nc1ccc2c(ccc3cccnc32)n1.O=[N+]([O-])c1cc([N+](=O)[O-])c(O)c([N+](=O)[O-])c1,inactive: 2.01%
22,CCOC(=O)c1ccc(NP(C)(=O)Oc2ccc(Cl)cc2)cc1 (stereo not drawn),inactive: 0.26%

row,Structure (SMILES),inhibition
1,CP(=O)(OC12CC3CC(CC(C3)C1)C2)OC12CC3CC(CC(C3)C1)C2,inactive: 1.98%
2,CCN(CC)CC(O)COC(=O)C(O)(c1ccccc1)C1CCCCC1 (stereo not drawn),inactive: -1.09%
3,COc1ccc(OP(C)(=O)Nc2ccc(Br)cc2)cc1 (stereo not drawn),inactive: 0.17%
4,COc1ccccc1OP(C)(=O)Nc1c(C)n(C)n(-c2ccccc2)c1=O (stereo not drawn),inactive: -1.01%
5,O=C(OCCCN1CCCC1)C(O)(c1ccccc1)C1CCCCC1 (stereo not drawn),inactive: -2.16%
6,CP(=O)(Oc1ccccc1)N1CCOC1=O (stereo not drawn),inactive: -0.18%
7,CCc1ccc(OP(C)(=O)Nc2cccnc2)cc1 (stereo not drawn),inactive: 1.02%
8,COc1ccccc1OP(C)(=O)Nc1ccccc1Br (stereo not drawn),inactive: -1.16%
9,CC(C)(C)c1ccc(OP(C)(=O)O)cc1,inactive: -0.5%
10,CP(=O)(Nc1ccc(Cl)cc1)Oc1ccc(F)cc1 (stereo not drawn),inactive: 2.56%
11,CN(C)C(=O)c1c([N+](=O)[O-])cc([N+](=O)[O-])cc1[N+](=O)[O-],inactive: -0.59%
12,COc1ccccc1OP(C)(=O)Nc1ccc(Br)cc1 (stereo not drawn),inactive: -1.11%
13,COc1ccc(OP(C)(=O)Nc2ccccn2)cc1 (stereo not drawn),inactive: -2.85%
14,CN(C)CCOC(=O)C(O)(c1ccccc1)C1CCCC1 (stereo not drawn),inactive: 3.03%
15,Cc1c(NP(C)(=O)Oc2ccc(C(C)C)cc2)c(=O)n(-c2ccccc2)n1C (stereo not drawn),inactive: 0.72%
16,O=[N+]([O-])c1cc([N+](=O)[O-])c(Nc2ccccn2)c([N+](=O)[O-])c1,inactive: 0.67%
17,CP(=O)(Nc1ccccn1)Oc1ccccc1 (stereo not drawn),inactive: -0.59%
18,COc1ccccc1OP(C)(=O)Nc1ccc(C)cc1C (stereo not drawn),inactive: 2.44%
19,CCc1ccc(OP(C)(=O)O)cc1,inactive: 1.4%
20,Cc1cc(C)cc(OP(C)(=O)Nc2cccc(C(F)(F)F)c2)c1 (stereo not drawn),inactive: -2.01%
21,COc1ccccc1OP(C)(=O)Nc1ccc(C)c(C)c1 (stereo not drawn),inactive: 0.84%
22,COc1ccc(OP(C)(=O)Nc2ccccc2Br)cc1 (stereo not drawn),inactive: 0.61%

row,Structure (SMILES),inhibition
1,Cc1nc2ccc3ccccc3c2o1.O=[N+]([O-])c1cc([N+](=O)[O-])c(O)c([N+](=O)[O-])c1,inactive: -4.1%
2,CP(=O)(Nc1ccc(Cl)cc1Cl)Oc1ccccc1 (stereo not drawn),inactive: -3.31%
3,CP(=O)(OCCOc1ccccc1)OCCOc1ccccc1,inactive: -0.68%
4,CCOC(=O)c1ccc(NP(C)(=O)Oc2ccc(F)cc2)cc1 (stereo not drawn),inactive: -0.43%
5,COc1ccc(OP(C)(=O)Nc2ccc(SC(F)(F)F)cc2)cc1 (stereo not drawn),inactive: 1.42%
6,CCN(CC)CCCOC(=O)C(O)(c1ccccc1)C1CCCCC1 (stereo not drawn),inactive: -3.17%
7,CP(=O)(Nc1ccccc1)Oc1ccc(F)cc1 (stereo not drawn),inactive: -3.68%
8,CCCCCOc1ccc(NP(C)(=O)Oc2ccc(Cl)cc2Cl)cc1 (stereo not drawn),inactive: -2.16%
9,O=[N+]([O-])c1cc([N+](=O)[O-])c(OC2CCCCC2O)c([N+](=O)[O-])c1 (stereo not drawn),inactive: -3%
10,CP(=O)(Nc1ccccc1F)Oc1ccccc1 (stereo not drawn),inactive: 1.24%
11,CC(C)c1ccc(OP(C)(=O)Nc2ccc(SC(F)(F)F)cc2)cc1 (stereo not drawn),inactive: -0.35%
12,O=C(OC1CN2CCC1CC2)c1ccc([N+](=O)[O-])cc1 (stereo not drawn),inactive: -0.33%
13,O=C(OCCN1CCN(CCOCc2ccccc2)CC1)C(O)(c1ccccc1)c1ccccc1,inactive: -1.47%
14,COc1ccc2c(c1O)-c1c(O)c(OC)cc3c1[C@H](C2)[N+](C)(C)CC3.O=[N+]([O-])c1cc([N+](=O)[O-])c([O-])c([N+](=O)[O-])c1[O-],inactive: -1.12%
15,CP(=O)(Nc1ccc(SC(F)(F)F)cc1)Oc1ccc(F)cc1 (stereo not drawn),inactive: -0.17%
16,CCOP(C)(=S)SCC(=O)NC(C)(CC)C(=O)O (stereo not drawn),inactive: 1.82%
17,CP(=O)(Nc1ccc2c(c1)OCCO2)Oc1ccccc1 (stereo not drawn),inactive: -1.92%
18,Cc1ccccc1NP(C)(=O)Nc1ccccc1C,inactive: 0.18%
19,COc1ccc(OP(C)(=O)Nc2cccc(Br)c2)cc1 (stereo not drawn),inactive: 0.55%
20,CN(C)CCOC(=O)C(O)(c1ccccc1)C1CCCCC1 (stereo not drawn),inactive: -3.73%
21,COc1ccc(NP(C)(=O)Oc2ccccc2OC)cc1 (stereo not drawn),inactive: 1.66%
22,O=[N+]([O-])c1cc([N+](=O)[O-])c(NCC2CCS(=O)(=O)C2)c([N+](=O)[O-])c1 (stereo not drawn),inactive: -1.58%
